Earlier results in US7862843B2 (priority 2004, dated 2011).

Tested on: BSE-infected bovine brain and scarpie-infected rodent brain
Conditions: 1 or 2 M, up to 2 hours

SMILES: [Na+].[OH-] [sodium hydroxide]
- Inactivation of the infectivity of prions: did not completely inactivate
